A mixed list of measured activities; the numbers were collected in NIAID ChemDB.

Shared fields: whole-cell or culture tests; agent: HIV-1; cells: MT-2; endpoint: EC50

ECn is the concentration giving n% inhibition of infection, replication or growth.

| SMILES | strain or isolate | mutations | method | conditions | value |
|---|---|---|---|---|---|
| Nc1nc(N)c2ncn([C@H]3CO[C@@H](CO)O3)c2n1 | IIIB | - | cytopathic effect / MTT | - | 10 µM |
| Nc1nc(=O)n([C@@H]2CS[C@H](CO)O2)cc1F | LAI | - | RT activity | - | 0.025 µM |
| Nc1nc(N)c2ncn([C@H]3CO[C@@H](CO)O3)c2n1 | IIIB | - | cytopathic effect / MTT | - | 9.7 µM |
| COc1c(O)c(I)c2c(c1OC)-c1c(c(I)c(O)c(OC)c1OC)C[C@H](C)[C@H](C)C2 | N119 nevirapine-resistant (RT Y181C) | RT-Y181C | cytopathic effect / MTT | - | >20 µM |
| CN1CC=C(CC2C(=O)N(c3ccccc3)c3ccccc32)CC1 | IIIB | - | cytopathic effect / XTT | - | 5.6 µM |
| Cc1cn([C@H]2C=C[C@@H](CO)O2)c(=O)[nH]c1=O | LAI | - | RT activity | - | 0.072 µM |
| Cc1cn([C@H]2C[C@H](N=[N+]=[N-])[C@@H](CO)O2)c(=O)[nH]c1=O | - | RT-Q151M V75I | cytopathic effect / MTT | - | >10 µM |
| O=C1N(Cc2ccc(O)cc2)[C@H](Cc2ccc3c(c2)OCCO3)[C@H](O)[C@@H](O)[C@@H](Cc2ccc3c(c2)OCCO3)N1Cc1ccc(O)cc1 | RF | - | - | - | <0.107 µM |
| NC(=O)C(c1ccccc1)(c1ccccc1)C1CCCN(CCCOCc2ccccc2)C1 | NL4-3 | - | cytopathic effect / XTT | - | 3.9 µM |
| Nc1nc(NC2CC2)c2ncn([C@H]3C=C[C@@H](CO)O3)c2n1 | IIIB | - | cytopathic effect / MTT | - | 8.6 µM |
| CCOC(=O)N1CCC(CC2C(=O)N(c3ccccc3)c3ccccc32)CC1 | IIIB | - | cytopathic effect / XTT | - | 2.6 µM |
| COc1ccc(C[C@H](NC(=O)O[C@H]2CCO[C@H]3OCC[C@H]32)[C@H](O)CN(C[C@H]2CCC(=O)N2)S(=O)(=O)c2ccc(OC)cc2)cc1 | LAI | - | - | - | <1 µM |
| O=C1CN=C(c2ccc[nH]2)c2cc(Cl)ccc2N1 | IIIB/LAI | - | cytopathic effect / trypan blue | - | >1.6 µM |
| Nc1ccn([C@H]2CC[C@@H](CO)O2)c(=O)n1 | LAI | - | RT activity | - | 0.034 µM |
| CS(=O)(=O)N1CCC(CC2C(=O)N(c3ccccc3)c3ccccc32)CC1 | IIIB | - | cytopathic effect / XTT | - | 7.8 µM |
| c1cc(CN2CCCNCCNCCCNCC2)ccc1CN1CCCNCCNCCCNCC1 | LAI | - | RT activity | - | 0.005 µM |
| O=C1N(Cc2ccc(CO)cc2)[C@H](Cc2ccccc2)[C@H](O)[C@@H](O)[C@@H](Cc2ccccc2)N1Cc1ccc(CO)cc1 | IIIB | - | virus yield | - | <0.11 µM |
| CNc1cccc(CN2C(=O)N(Cc3cccc(NC)c3)[C@H](Cc3ccc4c(c3)OCCO4)[C@H](O)[C@@H](O)[C@H]2Cc2ccc3c(c2)OCCO3)c1 | RF | - | - | - | <0.0087 µM |
| NC(=O)C(c1ccccc1)(c1ccccc1)[C@H]1CCCN(CCc2ccc(Cl)cc2)C1 | NL4-3 | - | cytopathic effect / XTT | - | 0.55 µM |
| Cc1cccc(C)c1OCC(=O)N[C@@H](Cc1ccccc1)[C@@H](O)C[C@H](Cc1ccccc1)NC(=O)[C@H](C(C)C)N1CCCNC1=O | LAI | - | RT activity | - | 0.004 µM |
| Nc1nc(=O)n([C@@H]2CS[C@H](CO)O2)cc1F | IIIB | - | cytopathic effect | - | 0.3 µM |
| CC(C)OC(=O)OCOP(=O)(CO[C@H](C)Cn1cnc2c(N)ncnc21)OCOC(=O)OC(C)C | A17 | RT-K103N Y181C | p24 | - | 0.001 µM |
| Nc1nc2c(ncn2[C@H]2C=C[C@@H](CO)O2)c(=O)[nH]1 | IIIB | - | cytopathic effect / MTT | - | 4.5 µM |
| O=c1[nH]cnc2c1ncn2[C@H]1CC[C@@H](CO)O1 | IIIB | - | cytopathic effect / MTT | - | 18 µM |
| O=c1[nH]cnc2c1ncn2[C@H]1CC[C@@H](CO)O1 | LAI | - | RT activity | - | 0.652 µM |
| Cc1cn([C@H]2C=C[C@@H](CO)O2)c(=O)[nH]c1=O | - | RT-Q151M | cytopathic effect / MTT | - | 26 µM |
| NC(=O)C(c1ccccc1)(c1ccccc1)[C@H]1CCCN(CCc2ccc3c(c2)CCO3)C1 | NL4-3 | - | cytopathic effect / XTT | - | 1.2 µM |
| O=C1N(Cc2ccc3ccccc3c2)[C@H](Cc2ccc3c(c2)OCCO3)[C@H](O)[C@@H](O)[C@@H](Cc2ccc3c(c2)OCCO3)N1Cc1ccc2ccccc2c1 | RF | - | - | - | <0.098 µM |
| CON(Cc1ccc(F)cc1)C(=O)/C=C(\O)C(=O)O | LAI | - | RT activity | - | 0.079 µM |
| O=C1N(Cc2ccccc2)[C@H](Cc2ccccc2)[C@H](O)[C@@H](O)[C@@H](Cc2ccccc2)N1Cc1ccccc1 | RF | - | - | - | <0.79 µM |
| CN1CCC(CC2(CC3CCN(C)CC3)c3ccccc3-c3ccccc32)CC1 | IIIB | - | cytopathic effect / XTT | - | 1 µM |
| CC(=O)c1cccc(CN2C(=O)N(Cc3cccc(C(C)=O)c3)[C@H](Cc3ccc4c(c3)CCO4)[C@H](O)[C@@H](O)[C@H]2Cc2ccc3c(c2)CCO3)c1 | RF | - | - | - | <0.01 µM |
| Nc1nc(NC2CC2)c2ncn([C@H]3C=C[C@@H](CO)O3)c2n1 | IIIB | - | cytopathic effect / MTT | - | 8.3 µM |
| CC(=O)c1cccc(CN2C(=O)N(Cc3cccc(C(C)=O)c3)[C@H](Cc3ccc4c(c3)OCCO4)[C@H](O)[C@@H](O)[C@H]2Cc2ccc3c(c2)OCCO3)c1 | RF | - | - | - | <0.0042 µM |
| CC(C)(C)c1ccc(C(Cn2cccc(C(F)(F)F)c2=O)NC2Cc3ccccc3C2)cc1 | RF | - | cytopathic effect | - | >15 µM |
| CNC(=O)C(c1ccccc1)(c1ccccc1)[C@H]1CCCN(CCc2ccc3c(c2)CCO3)C1 | NL4-3 | - | cytopathic effect / XTT | - | 5.9 µM |
| Cc1ccc2c(c1)C(CC1CCN(C)CC1)(CC1CCN(C)CC1)c1ccccc1-2 | IIIB | - | cytopathic effect / XTT | - | 0.8 µM |
| Cc1cn([C@H]2C[C@H](N=[N+]=[N-])[C@@H](CO)O2)c(=O)[nH]c1=O | N119 nevirapine-resistant (RT Y181C) | RT-Y181C | cytopathic effect / MTT | - | 0.12 µM |
| Cc1ccnc2c1NC(=O)c1cccnc1N2C1CC1 | LAI | - | cytopathic effect / MTS | - | 0.017 µM |
| CC(C)OC(=O)OCOP(=O)(CO[C@H](C)Cn1cnc2c(N)ncnc21)OCOC(=O)OC(C)C | IIIB | - | XTT / p24 | 7 d | 0.007 µM |

For reference, 5 entries again:

SMILES	strain or isolate	mutations	method	conditions	value
c1cc(CN2CCCNCCNCCCNCC2)ccc1CN1CCCNCCNCCCNCC1	LAI	-	RT activity	-	0.005 µM
CNc1cccc(CN2C(=O)N(Cc3cccc(NC)c3)[C@H](Cc3ccc4c(c3)OCCO4)[C@H](O)[C@@H](O)[C@H]2Cc2ccc3c(c2)OCCO3)c1	RF	-	-	-	<0.0087 µM
NC(=O)C(c1ccccc1)(c1ccccc1)[C@H]1CCCN(CCc2ccc3c(c2)CCO3)C1	NL4-3	-	cytopathic effect / XTT	-	1.2 µM
Nc1nc(N)c2ncn([C@H]3CO[C@@H](CO)O3)c2n1	IIIB	-	cytopathic effect / MTT	-	10 µM
O=c1[nH]cnc2c1ncn2[C@H]1CC[C@@H](CO)O1	LAI	-	RT activity	-	0.652 µM

Neighbouring rows are from separate reports. An empty or dashed field is not shown.